{"source": "PubChem BioAssay AID624099 (ICCB-Longwood, 2012)", "purpose": "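Human genes that papillomavirus E2 requires to repress the HPV18 LCR promoter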 (primary screen)", "system": "human C33A cervical carcinoma cells (HPV-negative) stably expressing BPV1 E2 and an HPV18 LCR luciferase reporter", "knock-down reagent": "siRNA pool against human genes, 40 nM", "duration": "72 h", "measurement": "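Per-well luciferase luminescence, z-scored on each plate against the plate mean and SD with control wells left out, then averaged across three replicate plates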", "scale": "mean z-score and z-score: higher = stronger reporter signal, weaker E2 silencing", "rule for the call": "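Mean z ≥ 2 together with z ≥ 2 in two or more of the three replicates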", "note": "The whole screen tested about 21,000 reagents; shown is an unselected part. Over the whole deposit, 497 (2.4%) are marked active. 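Higher z means weaker E2 silencing; only reporter increases were scored, and knock-downs that hurt cell survival may mask genuine repressor factors.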 Entries without a mark were called inactive. Reagents against one gene are numbered here. Reagent sequences are not shown."}
{"Gene":"CCDC150 (coiled-coil domain containing 150)","reagent no.":1,"mean z-score":-0.01,"z-score, replicate A":-0.18,"z-score, replicate B":-0.12,"z-score, replicate C":0.28}
{"Gene":"CCDC150 (coiled-coil domain containing 150)","reagent no.":2,"mean z-score":0.92,"z-score, replicate A":0.65,"z-score, replicate B":0.62,"z-score, replicate C":1.48}
{"Gene":"TMCC1 (transmembrane and coiled-coil domain family 1)","reagent no.":1,"mean z-score":0.79,"z-score, replicate A":0.83,"z-score, replicate B":0.75,"z-score, replicate C":0.8}
{"Gene":"PSMC2 (proteasome 26S subunit, ATPase 2)","reagent no.":1,"mean z-score":-0.97,"z-score, replicate A":-1.17,"z-score, replicate B":-0.78,"z-score, replicate C":-0.95}
{"Gene":"ZNF768 (zinc finger protein 768)","reagent no.":1,"mean z-score":-0.18,"z-score, replicate A":-0.43,"z-score, replicate B":-0.14,"z-score, replicate C":0.03}
{"Gene":"DGLUCY (D-glutamate cyclase)","reagent no.":1,"mean z-score":0.73,"z-score, replicate A":0.61,"z-score, replicate B":0.92,"z-score, replicate C":0.67}
{"Gene":"CLEC2D (C-type lectin domain family 2 member D)","reagent no.":1,"mean z-score":0.96,"z-score, replicate A":0.84,"z-score, replicate B":1.11,"z-score, replicate C":0.94}
{"Gene":"FAM47A (family with sequence similarity 47 member A)","reagent no.":1,"mean z-score":-0.38,"z-score, replicate A":-0.76,"z-score, replicate B":0.07,"z-score, replicate C":-0.45}
{"Gene":"MRPL1 (mitochondrial ribosomal protein L1)","reagent no.":1,"mean z-score":0.63,"z-score, replicate A":0.65,"z-score, replicate B":0.53,"z-score, replicate C":0.72}
{"Gene":"SPATA31C1 (SPATA31 subfamily C member 1)","reagent no.":1,"mean z-score":-0.48,"z-score, replicate A":-0.26,"z-score, replicate B":-0.7,"z-score, replicate C":-0.48}
{"Gene":"ABCA1 (ATP binding cassette subfamily A member 1)","reagent no.":1,"mean z-score":-0.29,"z-score, replicate A":-0.16,"z-score, replicate B":-0.19,"z-score, replicate C":-0.53}
{"Gene":"PIK3CA","reagent no.":1,"mean z-score":0.17,"z-score, replicate A":-0.19,"z-score, replicate B":0.51,"z-score, replicate C":0.19}
{"Gene":"SLC10A1","reagent no.":1,"mean z-score":-1.75,"z-score, replicate A":-1.68,"z-score, replicate B":-1.44,"z-score, replicate C":-2.14}
{"Gene":"CFAP57 (cilia and flagella associated protein 57)","reagent no.":1,"mean z-score":0.39,"z-score, replicate A":0.28,"z-score, replicate B":0.66,"z-score, replicate C":0.22}
{"Gene":"RPL34 (ribosomal protein L34)","reagent no.":1,"mean z-score":-1.87,"z-score, replicate A":-1.7,"z-score, replicate B":-2.03,"z-score, replicate C":-1.88}
{"Gene":"RANGRF (RAN guanine nucleotide release factor)","reagent no.":1,"mean z-score":-0.18,"z-score, replicate A":-0.33,"z-score, replicate B":0,"z-score, replicate C":-0.2}
{"Gene":"KRT19 (keratin 19)","reagent no.":1,"mean z-score":-0.11,"z-score, replicate A":-0.06,"z-score, replicate B":-0.23,"z-score, replicate C":-0.02}
{"Gene":"MARCHF10 (membrane associated ring-CH-type finger 10)","reagent no.":1,"mean z-score":-0.97,"z-score, replicate A":-0.92,"z-score, replicate B":-1.16,"z-score, replicate C":-0.84}
{"Gene":"CLIC1 (CLIC family member 1)","reagent no.":1,"mean z-score":0.76,"z-score, replicate A":0.69,"z-score, replicate B":0.52,"z-score, replicate C":1.06}
{"Gene":"SUMF1 (sulfatase modifying factor 1)","reagent no.":1,"mean z-score":"2.42 (active)","z-score, replicate A":2.2,"z-score, replicate B":2.62,"z-score, replicate C":2.44}
{"Gene":"SENP5 (SUMO specific peptidase 5)","reagent no.":1,"mean z-score":0.49,"z-score, replicate A":0.59,"z-score, replicate B":0.38}

Targets above whose gene name starts with M or m (2):
{"Gene":"MRPL1 (mitochondrial ribosomal protein L1)","reagent no.":1,"mean z-score":0.63,"z-score, replicate A":0.65,"z-score, replicate B":0.53,"z-score, replicate C":0.72}
{"Gene":"MARCHF10 (membrane associated ring-CH-type finger 10)","reagent no.":1,"mean z-score":-0.97,"z-score, replicate A":-0.92,"z-score, replicate B":-1.16,"z-score, replicate C":-0.84}
